Results of unrelated studies side by side (data: NIAID ChemDB).

Common to all: tests in culture

ECn is the concentration giving n% inhibition of infection, replication or growth. Neighbouring rows are from separate reports.

CCCCCCCCCCCCCCCCCCOCCOP(=O)(O)CO[C@H](CO)Cn1ccc(N)nc1=O ; species: Vaccinia virus ; cell line: HFF ; measure: EC50 ; strain: IHD ; result: 0.1 µM
Nc1ncnc2c1ccn2[C@@H]1O[C@H](CO)[C@@H](O)[C@H]1O ; species: Junin virus ; cell line: VERO ; measure: EC50 ; strain: XJCL3 ; result: 0.05 µg/mL
Nc1ccn(C[C@H]2COP(=O)(O)CO2)c(=O)n1 ; species: Cowpox virus ; cell line: HFF ; measure: EC50 ; strain: Brighton ; result: 48.3 µM
NC12CC3CC(CC(C3)C1)C2 ; species: Influenza A virus ; cell line: MDCK ; measure: EC50 ; strain: H2N2 JAPAN/305/57 ; result: 0.062 µg/mL
NC(=O)c1ncn([C@@H]2O[C@H](CO)[C@@H](O)[C@H]2O)n1 ; species: Venezuelan equine encephalitis virus ; cell line: VERO 76 ; measure: EC50 ; strain: Trinidad donkey ; result: 25 µg/mL
Nc1ncnc2c1ncn2[C@@H]1C=C(CO)[C@@H](O)[C@H]1O ; species: Junin virus ; cell line: VERO ; measure: EC50 ; strain: XJCL3 ; result: 0.3 µg/mL
Nc1ccn(C[C@@H](CO)OCP(=O)(O)O)c(=O)n1 ; species: Monkeypox virus ; cell line: VERO 76 ; measure: EC50 ; strain: Zaire strain wild-type ; result: 27 µM
Cn1c(O)c(N=NC(N)=S)c2ccccc21 ; species: Variola virus ; cell line: BSC ; measure: EC50 ; result: 258 µM
NC(=O)c1ncn([C@@H]2O[C@H](CO)[C@@H](O)[C@H]2O)n1 ; species: Cowpox virus ; cell line: HFF ; measure: EC50 ; result: >410 µM
Nc1ncnc2c1ncn2C[C@@H](CO)OCP(=O)(O)O ; species: Camelpox virus ; cell line: VERO 76 ; measure: EC50 ; strain: Somalia wild type ; result: 0.5 µM
COc1c(C)c2c(c(O)c1C/C=C(\C)CCC(=O)O)C(=O)OC2 ; species: Cowpox virus ; cell line: 3T3 ; measure: EC50 ; result: 1.3 µM
Nc1nc2c(ncn2COCCO)c(=O)[nH]1 ; species: Cowpox virus ; cell line: HFF ; measure: EC50 ; result: >444 µM
O=c1cnn([C@@H]2O[C@H](CO)[C@@H](O)[C@H]2O)c(=O)[nH]1 ; species: Cowpox virus ; cell line: VERO 76 ; measure: EC50 ; result: 6.9 µM
Nc1nccc2c1ncn2[C@@]12OCOC1[C@H](O)[C@@H](CO)O2 ; species: Junin virus ; cell line: VERO ; measure: EC50 ; strain: XJCL3 ; result: 1.1 µg/mL
O=c1[nH]cnc2c1ncn2[C@H]1CC[C@@H](CO)O1 ; species: Vaccinia virus ; cell line: HFF ; measure: EC50 ; result: >423 µM
NC(=O)c1c[se]c([C@@H]2O[C@H](CO)[C@@H](O)[C@H]2O)n1 ; species: Japanese encephalitis virus ; cell line: VERO ; measure: EC50 ; strain: Nakayama ; result: 3 µg/mL
Nc1ccn([C@@H]2C[C@H](CO)[C@@H](O)[C@H]2O)c(=O)n1 ; species: Junin virus ; cell line: VERO ; measure: EC50 ; strain: XJCL3 ; result: 0.2 µg/mL
Nc1ccn(C[C@@H](CO)OCP(=O)(O)O)c(=O)n1 ; species: Monkeypox virus ; cell line: VERO ; measure: EC50 ; result: 78 µM
Nc1ccn(C[C@H]2COP(=O)(O)CO2)c(=O)n1 ; species: Monkeypox virus ; cell line: VERO 76 ; measure: EC50 ; strain: Zaire strain wild-type ; result: 34 µM
Nc1ccn([C@@H]2CS[C@H](CO)O2)c(=O)n1 ; species: Vaccinia virus ; cell line: VERO ; measure: EC50 ; result: >436 µM
Nc1nccc2c1ncn2[C@@H]1C=C(CO)[C@@H](O)[C@H]1O ; species: Junin virus ; cell line: VERO ; measure: EC50 ; strain: XJCL3 ; result: 1.2 µg/mL
CC1(C)[C@@H](O[C@H]2O[C@H](C(=O)O)[C@@H](O)[C@H](O)[C@H]2O[C@@H]2O[C@H](C(=O)O)[C@@H](O)[C@H](O)[C@H]2O)CC[C@]2(C)[C@H]3C(=O)C=C4[C@@H]5C[C@@](C)(C(=O)O)CC[C@]5(C)CC[C@@]4(C)[C@]3(C)CC[C@@H]12 ; species: Japanese encephalitis virus ; cell line: VERO ; measure: EC90 ; strain: Nakayama ; result: <156 µg/mL

The first 2 rows once more:

smiles | species | cell line | measure | strain | result
CCCCCCCCCCCCCCCCCCOCCOP(=O)(O)CO[C@H](CO)Cn1ccc(N)nc1=O | Vaccinia virus | HFF | EC50 | IHD | 0.1 µM
Nc1ncnc2c1ccn2[C@@H]1O[C@H](CO)[C@@H](O)[C@H]1O | Junin virus | VERO | EC50 | XJCL3 | 0.05 µg/mL